Laboratory results: PubChem BioAssay AID1259414 (Drosophila RNAi Screening Center, 2018)

Test: 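Fly genes that alter Wolbachia amount inside host cells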 (primary screen)
System: Drosophila JW18 cells infected with Wolbachia
Reagent: long dsRNA against Drosophila genes, 0.25 µg dsRNA per well of a 384-well plate
Timing: 5 days
Treatment: cells persistently infected with Wolbachia before knock-down; no added drug
Measurement: 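Imaged fluorescence in situ signal for Wolbachia 23S rRNA per DAPI-counted host cell, given as a robust z-score within each plate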
Direction: Wolbachia per cell robust z: higher = more Wolbachia per host cell than the plate typical
Rule for the call: 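Active if absolute robust z reaches 1.5 in two or more of three replicates, leaving out multi- or no-target dsRNAs, genes unexpressed in JW18 and A1 wells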
The screen tested about 24,000 reagents; shown is a random part of those that have a named target and a result. In the full data, about 1,210 (5%) are marked active. 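Inactive calls also include excluded dsRNAs with several or no targets, genes unexpressed in JW18, and well A1, regardless of score.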 A plus sign joins genes that one reagent is predicted to hit. No sequences are given here.

| predicted target | dsRNA | Wolbachia per cell robust z, rep 1 | Wolbachia per cell robust z, rep 2 | Wolbachia per cell robust z, rep 3 | call |
| --- | --- | --- | --- | --- | --- |
| CG10920 | DRSC17765 | -5.69 | -0.631 | -1.03 | inactive |
| Alg12 | DRSC16416 | 0.299 | -1.83 | 0.348 | inactive |
| Fas2 | DRSC17308 | -0.275 | 0.91 | -0.14 | inactive |
| Fas2 | DRSC17309 | 0.0994 | 0.429 | 0.179 | inactive |
| Fas2 | DRSC18664 | -1.31 | 0.427 | 0.377 | inactive |
| CG9154 | DRSC03150 | -0.312 | -1.21 | -0.268 | inactive |
| CAH13 | DRSC06128 | -0.222 | -0.712 | -0.0844 | inactive |
| CAH13 | DRSC24093 | -4.17 | -2.87 | -0.504 | inactive |
| Sec3 | DRSC10384 | -0.624 | 2.05 | -0.095 | inactive |
| CG2059 | DRSC18203 | 0.559 | -0.271 | 0.822 | inactive |
| Dredd | DRSC18461 | 0.488 | 0.137 | -0.524 | inactive |
| Dredd | DRSC40866 | -3.27 | 1 | 0.435 | inactive |
| Fbxo42 | DRSC04529 | -1.39 | -0.117 | -0.546 | inactive |
| Fbxo42 | DRSC29911 | 0.83 | 0.574 | 0.623 | inactive |
| dnt | DRSC03522 | -0.611 | -0.748 | 0.978 | inactive |
| dnt | DRSC25886 | 0.4 | -0.167 | -0.0976 | inactive |
| CG1239 | DRSC12204 | -0.26 | -6.45 | -2.15 | active |
| CG1239 | DRSC27944 | 0.868 | -0.0695 | 0.554 | inactive |
| CG12341 | DRSC06133 | -0.86 | -0.697 | 0.161 | inactive |
| CycA | DRSC09132 | 3.53 | 2.92 | 3.68 | active |
| CycA | DRSC11123 | 5.53 | 3.8 | 5.41 | active |
| SclA + SclB | DRSC29855 | -2.09 | -0.858 | 0.271 | inactive |
| SclA + SclB | DRSC39126 | -1.22 | -0.285 | -1.69 | inactive |
| CG3071 | DRSC18526 | -0.53 | -7.39 | 0.346 | inactive |
| CG3071 | DRSC26289 | -0.596 | -0.164 | -0.207 | inactive |
| Adf1 | DRSC04941 | 0.288 | 0.517 | 0.778 | inactive |
| Adf1 | DRSC04963 | 0.37 | -0.0866 | -2.4 | inactive |
| CG32192 | DRSC21760 | -2.08 | -1.53 | -0.00787 | inactive |
| CG32192 | DRSC26771 | -3.75 | 0.138 | -0.213 | inactive |
| Cyp4e1 | DRSC07370 | -1.38 | -1.57 | -1.3 | inactive |
| Cyp4e1 | DRSC27154 | -0.644 | 0.00219 | 0.352 | inactive |
| side-VI | DRSC14920 | -3.39 | -0.0707 | -0.395 | inactive |
| side-VI | DRSC23088 | 0.201 | -1.8 | 0.89 | inactive |
| side-VI | DRSC28883 | 0.525 | -0.313 | -0.509 | inactive |
| CG31279 | DRSC13158 | -0.574 | -0.648 | -0.00976 | inactive |
| conv | DRSC07213 | 0.0783 | 1.28 | -2.14 | inactive |
| CG9689 | DRSC18440 | 0.488 | 0.0906 | -1.72 | inactive |
| CG9689 | DRSC28305 | -0.102 | 0.594 | -1.9 | inactive |
| CG32189 + CG32188 | DRSC28810 | -1.03 | -0.533 | 0.341 | inactive |
| Polr2M | DRSC15513 | 0.748 | 0.993 | 0.732 | inactive |
| Polr2M | DRSC25856 | -0.662 | -0.939 | -0.0383 | inactive |
| CG7276 | DRSC10797 | -0.651 | 0.0831 | -1.29 | inactive |
| CG1812 | DRSC20557 | -0.0724 | 0.377 | 0.247 | inactive |
| CG1812 | DRSC26769 | 0.154 | -0.785 | 1.05 | inactive |
| CG11436 | DRSC17783 | -0.441 | 0.0812 | 0.827 | inactive |
| Pex10 | DRSC08599 | 0.218 | 0.42 | -0.51 | inactive |
| Pex10 | DRSC22021 | -0.832 | -0.469 | -0.15 | inactive |
| CG2750 | DRSC19867 | 0.447 | -1.17 | -0.901 | inactive |
| CG10947 | DRSC02111 | -0.609 | -0.052 | -0.313 | inactive |
| CG10947 | DRSC27404 | 0.0926 | 0.511 | -0.614 | inactive |
| CG31517 | DRSC13010 | -0.271 | 0.102 | 1.08 | inactive |
| Mad1 | DRSC07561 | 0.977 | -2.52 | -0.239 | inactive |
| CG32170 | DRSC09452 | 0.622 | 0.454 | 0.915 | inactive |
| Zyx | DRSC17186 | 0.717 | 1.22 | 0.249 | inactive |
| Vps16B | DRSC15304 | 0.738 | -1.17 | 0.624 | inactive |
| PNKP | DRSC16512 | 0.77 | 0.429 | 0.602 | inactive |
| CG31431 | DRSC14589 | -1.33 | -2.9 | -1.95 | inactive |
| bsh | DRSC03498 | -0.813 | -0.361 | -1.71 | inactive |
| bsh | DRSC25413 | 0.822 | 0.839 | 0.636 | inactive |
| CG4607 | DRSC18375 | 0.316 | -6.47 | -0.996 | inactive |
| CG4607 | DRSC40692 | 0.181 | -2.51 | -1.5 | inactive |
| CG31870 | DRSC21681 | 1.22 | 0.991 | 1.47 | inactive |
| CG31870 | DRSC27838 | 0.777 | 0.278 | -0.724 | inactive |
| CG13653 | DRSC14653 | 0.163 | 0.682 | -1.98 | inactive |
| AstC-R2 | DRSC23467 | -4.73 | 1.59 | 0.508 | inactive |
| Dh44-R1 | DRSC07172 | -0.814 | -1.75 | 0.377 | inactive |
| Dh44-R1 | DRSC28984 | 0.703 | 0.338 | 0.0498 | inactive |
| CG13725 | DRSC10054 | -2.32 | -0.471 | -0.409 | inactive |

3 neighbouring entries from above, quoted:
| predicted target | dsRNA | Wolbachia per cell robust z, rep 1 | Wolbachia per cell robust z, rep 2 | Wolbachia per cell robust z, rep 3 | call |
| --- | --- | --- | --- | --- | --- |
| CG13653 | DRSC14653 | 0.163 | 0.682 | -1.98 | inactive |
| AstC-R2 | DRSC23467 | -4.73 | 1.59 | 0.508 | inactive |
| Dh44-R1 | DRSC07172 | -0.814 | -1.75 | 0.377 | inactive |
